These are literature values, as cited in PMC7401249 (Marine Drugs, 2020).

The subject of one data set is molluscan NaV channel. Particulars: ref [3], cited from earlier work.
In a further data set the test system is mollusc NaVs. The following applies: sites adjacent to the binding sites of CsTx and GPT; ref [4],[5],[6]; cited from earlier work.

As to `CC[C@H](C)[C@@H]1NC(=O)[C@@H]2CSSC[C@@H]3NC(=O)[C@H](CCSC)NC(=O)[C@H](CCC(=O)O)NC(=O)CNC(=O)[C@H](CO)NC(=O)[C@H](CCC(N)=O)NC(=O)[C@H](CCCCN)NC(=O)[C@@H](NC(=O)[C@@H](N)Cc4c[nH]c5ccccc45)CSSC[C@H](NC(=O)[C@H](CSSC[C@@H](C(=O)N[C@H](C(=O)O)[C@@H](C)O)NC(=O)[C@H](C(C)C)NC(=O)[C@H](CC(C)C)NC(=O)[C@H](C(C)C)NC1=O)NC(=O)[C@H](CC(N)=O)NC(=O)[C@H](CCC(N)=O)NC(=O)[C@H](CC(=O)O)NC(=O)[C@H](CC(C)C)NC(=O)[C@H](CC(C)C)NC(=O)[C@H](CC(N)=O)NC3=O)C(=O)N[C@@H](CC(=O)O)C(=O)NCC(=O)N[C@@H](Cc1ccc(O)cc1)C(=O)N2`, the “effect on inactivation of molluscan NaV current at 0.5 µM” value in the data set with molluscan NaV channel (0.5 µM) is “slow inactivation of molluscan NaV current”. Also, in the data set on molluscan NaV channel, the “effect on NaV channel inactivation in molluscs” value is on record as “potently slow NaV channel inactivation”. For the same compound, the “binding to mollusc NaVs” value in the data set on mollusc NaVs is given as “binds”.
